Anti-infective test results gathered from many reports (values: NIAID ChemDB through PubChem).

Common to all: tests in culture; species: Aspergillus fumigatus

Rows are shuffled and stem from different studies.

smiles	mutations	strain or isolate	tested at	conditions	endpoint	method	result
O=[N+]([O-])c1cc(CSc2cccc[n+]2[O-])cc([N+](=O)[O-])c1		231		24 h	EC50	broth dilution	>500 µM
COc1cccc(OC)c1O					MIC100	agar	>1000 µg/mL
CN(C/C=C/C#CC(C)(C)C)Cc1cccc2ccccc12		NFI 4001			MFC		4 µg/mL
CCC(C)n1ncn(-c2ccc(N3CCN(c4ccc(OC[C@H]5CO[C@](Cn6cncn6)(c6ccc(Cl)cc6Cl)O5)cc4)CC3)cc2)c1=O		60 isolates			MIC90		>16 µg/mL
O=[N+]([O-])c1ccc(C[Se]c2nnnn2C2CCCCC2)c([N+](=O)[O-])c1		231		24 h	EC50	broth dilution	>500 µM
CN(C)CCCC1(c2ccc(F)cc2)OCc2cc(C#N)ccc21		10 clinical isolates			MFC		312–1250 µg/mL
CCC(C)CC(C)CCCCCCCCC(=O)N[C@H]1C[C@@H](O)[C@H](NCCN)NC(=O)[C@@H]2[C@@H](O)CCN2C(=O)[C@H]([C@H](O)CCN)NC(=O)[C@H]([C@H](O)[C@@H](O)c2ccc(O)cc2)NC(=O)[C@@H]2C[C@@H](O)CN2C(=O)[C@H]([C@@H](C)O)NC1=O					MIC90		0.06–0.5 µg/mL
COc1cc(C(=O)O)cc(OC)c1O					MIC50	agar	>1000 µg/mL
OC[C@H]1O[C@@H](n2[nH]c(-c3cccnc3)nc2=S)[C@H](O)[C@@H](O)[C@@H]1O			1 mg/mL		zone	agar diffusion / agar	0 mm
O=C(/C=C/c1ccccc1)c1ccc2occc2c1O			50 µg/disc		zone	agar diffusion	0 mm
Cc1ccc(C(C)C)cc1O					MIC50	agar	37 µg/mL
C[C@H]1[C@H](O)[C@@H](C)/C=C/C=C/C=C/C=C/C=C/C=C/C=C/[C@H](O[C@@H]2O[C@H](C)[C@@H](O)[C@H](N)[C@@H]2O)C[C@@H]2O[C@](O)(C[C@@H](O)C[C@@H](O)CC[C@H](O)[C@@H](O)C[C@@H](O)CC(=O)O[C@H]1C)C[C@H](O)[C@H]2C(=O)O		156 isolates			MIC50		0.5 µg/mL
CC(=O)OC[C@H]1O[C@@H](Sc2ncc(-c3cccnc3)n2N)[C@H](OC(C)=O)[C@@H](OC(C)=O)[C@@H]1OC(C)=O			2.5 mg/mL		zone	agar diffusion / agar	1–5 mm
O=[N+]([O-])c1cc(C[Se]c2nnnn2Cc2ccccc2)cc([N+](=O)[O-])c1		231		48 h	EC50	broth dilution	>500 µM
C=CCc1ccc(O)c(OC)c1					MIC100	agar	423 µg/mL
O=[N+]([O-])c1cc(CSc2nnnn2C2CCCCC2)cc([N+](=O)[O-])c1		231		24 h	EC50	broth dilution	>500 µM
CCCCCOc1ccc(-c2cc(-c3ccc(C(=O)N[C@H]4C[C@@H](O)[C@@H](O)NC(=O)[C@@H]5[C@@H](O)[C@@H](C)CN5C(=O)[C@H]([C@H](O)CC(N)=O)NC(=O)[C@H]([C@H](O)[C@@H](O)c5ccc(O)c(OS(=O)(=O)O)c5)NC(=O)[C@@H]5C[C@@H](O)CN5C(=O)[C@H]([C@@H](C)O)NC4=O)cc3)no2)cc1					MIC90		0.015 µg/mL
COc1cc(C)ccc1O					MIC100	agar	928 µg/mL
CC(=O)OC[C@H]1O[C@@H](n2nc(-c3cccnc3)n(/N=C/c3ccc(Cl)cc3)c2=S)[C@H](OC(C)=O)[C@@H](OC(C)=O)[C@@H]1OC(C)=O			2.5 mg/mL		zone	agar diffusion / agar	1–5 mm
CCC(C)n1ncn(-c2ccc(N3CCN(c4ccc(OC[C@H]5CO[C@](Cn6cncn6)(c6ccc(Cl)cc6Cl)O5)cc4)CC3)cc2)c1=O	TR34 azole-resistant				MIC90	broth dilution	>16 µg/mL
CCc1ccccc1O					MIC50	agar	58 µg/mL
C[C@@H]1[C@H](O)[C@@H](C)/C=C/C=C/CC/C=C/C=C/C=C/C=C/C(O[C@H]2O[C@H](C)[C@@H](O)[C@H](N)[C@@H]2O)CC2O[C@](O)(CC(O)C(O)CCC(O)CC(O)CC(O)CC(=O)O[C@H]1C)CC(O)C2C(=O)O			50 µg/disc		zone	agar diffusion	21 mm
CC(=O)OC[C@H]1O[C@@H](Sc2nnc(-c3cccnc3)n2/N=C/c2ccc(Cl)cc2)[C@H](OC(C)=O)[C@@H](OC(C)=O)[C@@H]1OC(C)=O			2.5 mg/mL		zone	agar diffusion / agar	1–5 mm
OC(Cn1cncn1)(Cn1cncn1)c1ccc(F)cc1F		NFI 4001			MFC		>128 µg/mL
CC(=O)OC[C@H]1O[C@@H](Sc2nnc(-c3cccnc3)n2/N=C/c2ccc(C)cc2)[C@H](OC(C)=O)[C@@H](OC(C)=O)[C@@H]1OC(C)=O			2.5 mg/mL		zone	agar diffusion / agar	1–5 mm
CCc1ccc(O)cc1					MIC50	agar	113 µg/mL
CCCCCOc1ccc(-c2ccc(-c3ccc(C(=O)N[C@H]4C[C@@H](O)[C@@H](O)NC(=O)[C@@H]5[C@@H](O)[C@@H](C)CN5C(=O)[C@H]([C@H](C)O)NC(=O)[C@H]([C@H](O)[C@@H](O)c5ccc(O)cc5)NC(=O)[C@@H]5C[C@@H](O)CN5C(=O)[C@H]([C@H](C)O)NC4=O)cc3)cc2)cc1					MIC90		0.015 µg/mL
O=C(O)/C=C/c1ccc(O)cc1					MIC50	agar	>1000 µg/mL
COc1ccc(/C=N/[n+]2c(-c3ccccc3)[nH]n([C@@H]3O[C@H](COC(C)=O)[C@@H](OC(C)=O)[C@H](OC(C)=O)[C@H]3OC(C)=O)c2=S)cc1			5 mg/mL		zone	agar diffusion / agar	6–10 mm
O=C(O)c1cccc(-n2nnnc2SCc2cc([N+](=O)[O-])cc([N+](=O)[O-])c2)c1		231		24 h	EC50	broth dilution	>500 µM
COc1cc(C(=O)O)ccc1O					MIC50	agar	>1000 µg/mL
C[C@H]1[C@H](O)[C@@H](C)/C=C/C=C/C=C/C=C/C=C/C=C/C=C/[C@H](O[C@@H]2O[C@H](C)[C@@H](O)[C@H](N)[C@@H]2O)C[C@@H]2O[C@](O)(C[C@@H](O)C[C@@H](O)CC[C@H](O)[C@@H](O)C[C@@H](O)CC(=O)O[C@H]1C)C[C@H](O)[C@H]2C(=O)O		AB16.4	16 µg/mL		inhibition	agar	60%
CN(C/C=C/C#CC(C)(C)C)Cc1cccc2ccccc12			5 mg/mL		zone	agar diffusion / agar	10–15 mm
O=c1cc(-c2ccc3c(c2)OCO3)oc2c1ccc1occc12			50 µg/disc		zone	agar diffusion	14 mm
Nc1[nH]c(=O)ncc1F					MIC90		>64 µg/mL

Repeating the final 4 entries:

smiles | mutations | strain or isolate | tested at | conditions | endpoint | method | result
C[C@H]1[C@H](O)[C@@H](C)/C=C/C=C/C=C/C=C/C=C/C=C/C=C/[C@H](O[C@@H]2O[C@H](C)[C@@H](O)[C@H](N)[C@@H]2O)C[C@@H]2O[C@](O)(C[C@@H](O)C[C@@H](O)CC[C@H](O)[C@@H](O)C[C@@H](O)CC(=O)O[C@H]1C)C[C@H](O)[C@H]2C(=O)O |  | AB16.4 | 16 µg/mL |  | inhibition | agar | 60%
CN(C/C=C/C#CC(C)(C)C)Cc1cccc2ccccc12 |  |  | 5 mg/mL |  | zone | agar diffusion / agar | 10–15 mm
O=c1cc(-c2ccc3c(c2)OCO3)oc2c1ccc1occc12 |  |  | 50 µg/disc |  | zone | agar diffusion | 14 mm
Nc1[nH]c(=O)ncc1F |  |  |  |  | MIC90 |  | >64 µg/mL

An empty or dashed field is not shown. A number after MIC or MFC names an inhibition level or a share of isolates. ECn is the concentration giving n% inhibition of infection, replication or growth. Two numbers with a dash give a range or band. Zone: diameter of growth inhibition. Percent inhibition refers to the dose given; in toxicity tests it is the harm to the cells.